Experimental data from the supplement of paper PMC9931576.
Human monoclonal antibodies against the spike receptor-binding domain (heavy:light variable regions). IC50 against pseudoviruses bearing the spike of naturally observed variants; lower = stronger; >10 µg/ml means not reached at the top dose. No active / inactive call. The stated detection limit is 0.0005 µg/ml; values near or below 0.001 µg/ml lie at the floor of the assay.

Experiments:
Experiment in all cases: pseudovirus neutralization IC50; higher = weaker neutralization
[1] = molecular target: SARS-CoV-2 Omicron BA.1 spike pseudovirus
Experimental: (§1)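 Single-round VSV luciferase pseudovirus mixed with antibody dilutions for 1 h and put on Huh-7 cells for about a day; IC50 from the dose curve.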

[2] = molecular target: SARS-CoV-2 Omicron BA.2 spike pseudovirus
Experimental: as §1

[3] = molecular target: SARS-CoV-2 Omicron BA.2.75 spike pseudovirus
Experimental: as §1

[4] = molecular target: SARS-CoV-2 Omicron BA.5 spike pseudovirus
Experimental: as §1

[5] = molecular target: SARS-CoV-2 Omicron BQ.1.1 spike pseudovirus
Experimental: as §1

[6] = molecular target: SARS-CoV-2 Omicron XBB spike pseudovirus
Experimental: as §1

[7] = molecular target: SARS-CoV-2 early D614G spike pseudovirus
Experimental: as §1

B1: BD55-5234 (protein)
chain 1: QVQLVQSGAEVRKPGASVKVSCKASGYTFNSHDINWVRQAVGQGLEWMGWMNPLSGDTGFAQSFQGRVILTRDSSISTAYMELRSLRSDDTAVYYCARGYPYSDMLTGVSHYYYGLDVWGQGTTVTVSS
chain 2: DIQMTQSPSSLSASVGDRVTITCRASQGISNSLAWFQQKPGKAPKSLIYGASSLQSGVPSKFSGSGSGTDFTLTISSLQPEDFATYYCQQYHSYPLTFGGGTKVEMK
Question: Which “pseudovirus neutralization IC50” value [1] does the source give for B1 here?
Answer: > 10 µg/mL

Question: And the “pseudovirus neutralization IC50” value [2]?
Answer: > 10 µg/mL

Question: What about the “pseudovirus neutralization IC50” value [3] of the same binder?
Answer: > 10 µg/mL

Question: And the “pseudovirus neutralization IC50” value [4]?
Answer: > 10 µg/mL

Question: And the “pseudovirus neutralization IC50” value [5]?
Answer: > 10 µg/mL

Question: And the “pseudovirus neutralization IC50” value [6]?
Answer: > 10 µg/mL

Question: And the “pseudovirus neutralization IC50” value [7]?
Answer: > 10 µg/mL

B2: BD55-5171 (protein)
chain 1: QVQLVQSGSGLKKPGASVKVSCRTSGYSFTDHTINWVRQAPGQGLEWMGWINTATGIPTYAQGFTGRFVFSLDTSVGTAFLLISSLQAADTAVYYCARAASWDYCGNNNCFGDYWGQGTLVTVSS
chain 2: ENVLTQSPGTLSLSVGERVTLSCRASHSVGSSFLAWYQQKPGQAPRLLIYGASNRATGIPDRISGRGSGTDFSLTISRLEPEDFAVYYCHQYGSSPFTFGQGTKVEIK
Question: Which results are given for B2?
Answer: pseudovirus neutralization IC50 [1]: > 10 µg/mL; pseudovirus neutralization IC50 [2]: > 10 µg/mL; pseudovirus neutralization IC50 [3]: > 10 µg/mL; pseudovirus neutralization IC50 [4]: > 10 µg/mL; pseudovirus neutralization IC50 [5]: > 10 µg/mL; pseudovirus neutralization IC50 [6]: > 10 µg/mL; pseudovirus neutralization IC50 [7]: 0.00201 µg/mL

B3: BD55-5223 (protein)
chain 1: EVQLLESGGGWVQPGGSLRLSCAASGFTFSSYAMSWVRQAPGKGLEWVSAISNTGGSTYYADSVKGRFTVSRDDSKNTLYLQMNSLRAEDTAVYYCAKNWDSIGYTSGWQHLDWFDPWGQGTLVTVSS
chain 2: DIQMTQSPSSLSASVGDRVTITCRASQSINTYLNWYQQKPGKAPKLLIYVASSLQSGVPSRFSGSGSGTDFTLTISSLQPEDFATYYCQQSYSSPSITFGQGTRLEIK
Question: What does the source list for B3?
Answer: pseudovirus neutralization IC50 [1]: > 10 µg/mL; pseudovirus neutralization IC50 [2]: > 10 µg/mL; pseudovirus neutralization IC50 [3]: > 10 µg/mL; pseudovirus neutralization IC50 [4]: > 10 µg/mL; pseudovirus neutralization IC50 [5]: > 10 µg/mL; pseudovirus neutralization IC50 [6]: > 10 µg/mL; pseudovirus neutralization IC50 [7]: 0.14 µg/mL

B4: BD55-5245 (protein)
chain 1: QVQLVQSGAEVKKPGSSVKVSCKASGGSLSSDGINWVRQAPGQGLEWLGRIIPIPGIADNAQKFQGRVTITADKSTSTAYMELSSLRSEDTAVYYCARAPPRGYSGYDLLGNDAFDIWGQGTMVTVSS
chain 2: QSVLTQPPSVSGAPGQRVTISCTGSSSNIGAGYDVHWYQQLPGTAPKLLLYGNTNRPSGVPDRFTGSKSGTSASLAITGLQAEDEADYYCQSYDTSLSGSYVFGTGTKVAVL
Question: What does the source list for B4?
Answer: pseudovirus neutralization IC50 [1]: > 10 µg/mL; pseudovirus neutralization IC50 [2]: > 10 µg/mL; pseudovirus neutralization IC50 [3]: > 10 µg/mL; pseudovirus neutralization IC50 [4]: > 10 µg/mL; pseudovirus neutralization IC50 [5]: > 10 µg/mL; pseudovirus neutralization IC50 [6]: > 10 µg/mL; pseudovirus neutralization IC50 [7]: 0.579 µg/mL

B5: BD55-5166 (protein)
chain 1: EVQLVESGGGLVQPGRSLRLSCAVSGLTFDDYAMHWVRQAPGKGLEWVSGISWNGGDIVYADSVKGRFAVSRDNAKNSLYLQMNSLRPEDTAVYYCTKDRLGEIFPCFDQWGQGTLVTVSS
chain 2: QSALTQPASVSGSPGQSITISCTGTSNDVGRSNLVSWYQQHPGKAPKLMIFEVSARPSGVSYRFSGSKSGNTASLTISGLRAEDEADYYCCSDARTGTFSVLFGGGTKLTVL
Question: B5 was tested. Which “pseudovirus neutralization IC50” value [1] did it give?
Answer: > 10 µg/mL

Question: What about the “pseudovirus neutralization IC50” value [2] of the same binder?
Answer: > 10 µg/mL

Question: What about the “pseudovirus neutralization IC50” value [3] of the same binder?
Answer: > 10 µg/mL

Question: What about the “pseudovirus neutralization IC50” value [4] of the same binder?
Answer: > 10 µg/mL

Question: What about the “pseudovirus neutralization IC50” value [5] of the same binder?
Answer: > 10 µg/mL

Question: What about the “pseudovirus neutralization IC50” value [6] of the same binder?
Answer: > 10 µg/mL

Question: And the “pseudovirus neutralization IC50” value [7]?
Answer: > 10 µg/mL

B6: BD55-5256 (protein)
chain 1: QVQLVQSGTEVKKPGSSVKVSCKASGGPFSGYVINWVRQAPGQGLEWMGGIIPVFETVKYAQKFQGRVTITAGESASTAYMELNSLRSEDTAVYYCAKSKYHSGYDVLTGRADFSLPFDYWGQGTLVTVSS
chain 2: DIQMTQSPSSLSASVGDRVIITCQASQDITNSLSWYQQKPGKAPKLLIYGAFNLETGVPSRFSGSGSGTDFTFAISSLQPEDIATYFCQQYADLPYTFGQGTKLDIK
Question: How did the “pseudovirus neutralization IC50” value [1] turn out when B6 was run?
Answer: 3.7 µg/mL

Question: What about the “pseudovirus neutralization IC50” value [2] of the same binder?
Answer: 2.28 µg/mL

Question: And the “pseudovirus neutralization IC50” value [3]?
Answer: 3.49 µg/mL

Question: And the “pseudovirus neutralization IC50” value [4]?
Answer: 5.23 µg/mL

Question: What about the “pseudovirus neutralization IC50” value [5] of the same binder?
Answer: 4.4 µg/mL

Question: And the “pseudovirus neutralization IC50” value [6]?
Answer: 3.26 µg/mL

Question: And the “pseudovirus neutralization IC50” value [7]?
Answer: 0.47 µg/mL

B7: BD55-5259 (protein)
chain 1: QITLKESGPTLVKPTQTLTLTCTFSGFSLTMPEVGVAWVRQPPGKALEWLALIYGDDNKRYSPSLESRLTITKDSSKNQVVLTMTNLDSVDTATYYCARRKFLWDSDPVAFDYWGLGTLVIVSS
chain 2: DIVMTQTPLSLPVTLGQPASISCRSSQSLVHIDGNIYLSWLQQRPGQPPRLLIYKISNRFSGVPDRFSGSGSGTDFTLKISRVEAEDVGVYYCMQATQFPHEMYTFGQGTKLEIR
Question: What does the source list for B7?
Answer: pseudovirus neutralization IC50 [1]: 3.9 µg/mL; pseudovirus neutralization IC50 [2]: 4.3 µg/mL; pseudovirus neutralization IC50 [3]: 3.85 µg/mL; pseudovirus neutralization IC50 [4]: 4.47 µg/mL; pseudovirus neutralization IC50 [5]: 3.34 µg/mL; pseudovirus neutralization IC50 [6]: 4.3 µg/mL; pseudovirus neutralization IC50 [7]: 0.625 µg/mL

B8: BD55-1034 (protein)
chain 1: QVQLVQSGAEVKKPGASVMVSCKASGYTFTNYYIHWVRLAPGQGLEWVGIINPDGDSTTYAQRFQGRVTLTADTSTSTVYMYLRRLRSEDTAVYYCARGTDFVPIDRRPFDCWGQGTLVTVSS
chain 2: DIVMTQSPDSLAVSLGERATINCKSSQSGLYSSNNKSYLAWYQQKPGQPPKLLIYWASTRESGVPDRFSGSGSGTDFTLTISSLQAEDVAVYYCHQYYNTPHTFGQGTKLEIK
Question: For B8, which “pseudovirus neutralization IC50” value [1] is on record?
Answer: > 10 µg/mL

Question: And the “pseudovirus neutralization IC50” value [2]?
Answer: > 10 µg/mL

Question: And the “pseudovirus neutralization IC50” value [3]?
Answer: > 10 µg/mL

Question: And the “pseudovirus neutralization IC50” value [4]?
Answer: > 10 µg/mL

Question: And the “pseudovirus neutralization IC50” value [5]?
Answer: > 10 µg/mL

Question: What about the “pseudovirus neutralization IC50” value [6] of the same binder?
Answer: > 10 µg/mL

Question: What about the “pseudovirus neutralization IC50” value [7] of the same binder?
Answer: > 10 µg/mL

B9: BD55-5205 (protein)
chain 1: QVQLQESGPGLVQPSETLSLTCTVSGTSITNYYWSWIRQPPGKGLEWIGYIYYSGKINYNPSLKSRVTMSMDTPKNRFSLRLTSVTAADTAIYYCARGSIVADGPNTIDLWGQGTLVVVSS
chain 2: QSALTQPASVSGSPGQSITISCTGTSSDVGAYDYVSWYQQHPGKAPKLLIFDVNKRPSGVSNRFSGSKSGNTASLTISGLQAEDEADYYCSSFESSITEVFGGGTKVTVL
Question: What does the source list for B9?
Answer: pseudovirus neutralization IC50 [1]: > 10 µg/mL; pseudovirus neutralization IC50 [2]: > 10 µg/mL; pseudovirus neutralization IC50 [3]: > 10 µg/mL; pseudovirus neutralization IC50 [4]: > 10 µg/mL; pseudovirus neutralization IC50 [5]: > 10 µg/mL; pseudovirus neutralization IC50 [6]: > 10 µg/mL; pseudovirus neutralization IC50 [7]: > 10 µg/mL

B10: BD55-5200 (protein)
chain 1: QVQLQESDPGLVKPSQTLSLTCTVSGGSISGGSNFWNWIRQPAGKGLEWIGRIYTSGNTDYNPSLKSRVTISVDTSKNQFSLRLSSVTAADTAVYYCARDRLSGKVEVAINHFSYGLDVWGPGTTVTVSS
chain 2: SHELTQPPSVSVSPGQTARITCSGDALPKQYAYWYQQKSGQAPVLVIYKDSERPSGIPERFSGSSSGRTVTLTISGVQAEDEADYYCQSADSSNIYLAFGGGTKVTVL
Question: With B10 as the binder, how does the “pseudovirus neutralization IC50” value [1] read?
Answer: > 10 µg/mL

Question: And the “pseudovirus neutralization IC50” value [2]?
Answer: > 10 µg/mL

Question: And the “pseudovirus neutralization IC50” value [3]?
Answer: > 10 µg/mL

Question: And the “pseudovirus neutralization IC50” value [4]?
Answer: > 10 µg/mL

Question: And the “pseudovirus neutralization IC50” value [5]?
Answer: > 10 µg/mL

Question: And the “pseudovirus neutralization IC50” value [6]?
Answer: > 10 µg/mL

Question: And the “pseudovirus neutralization IC50” value [7]?
Answer: 0.185 µg/mL

B11: BD55-5189 (protein)
chain 1: QVQLVQSGAEVKKPGASVKVSCKASGYSFTTFYIHWLRQAPGQGLEWMGIVNVAGDTTDYAQNFQGRVTMTRDTSTGTVYMELSSLRSEDTAIYYCASPREKGYSGYDFWETTFDIWGQGTMVTVS
chain 2: EVVMTQSPATLSVSPGERATLSCRASQSISSNLAWYQQKPGQAPRLLIYGASTRATGIPARFSGSGSGSQFTLTISSLQSEDFVVYYCQQYNNWPPIFGQGTKLEIK
Question: Which “pseudovirus neutralization IC50” value [1] does the source give for B11 here?
Answer: > 10 µg/mL

Question: And the “pseudovirus neutralization IC50” value [2]?
Answer: > 10 µg/mL

Question: What about the “pseudovirus neutralization IC50” value [3] of the same binder?
Answer: > 10 µg/mL

Question: And the “pseudovirus neutralization IC50” value [4]?
Answer: > 10 µg/mL

Question: What about the “pseudovirus neutralization IC50” value [5] of the same binder?
Answer: > 10 µg/mL

Question: What about the “pseudovirus neutralization IC50” value [6] of the same binder?
Answer: > 10 µg/mL

Question: What about the “pseudovirus neutralization IC50” value [7] of the same binder?
Answer: 0.00752 µg/mL

B12: BD55-5236 (protein)
chain 1: QVQLVQSGAEVKKPGSSVKVSCKASGGTFTSQAISWVRQAPGQGLEWMGRIITVLGTTTYAQKFQGRLRITADRSTNTAYMDLTGLTSDDTAVYFCARDLDGYSGYDFGSSERRDSFYFDYWGQGTLVNVPS
chain 2: SSELTQDPPVSVALGQTVRITCQGDSLRTYYASWFQQKPGQAPLLVVYGKNYRPSGIPARFSGSFSGNTASLTITGAQAEDEADYYCNSRDSNNDHHVIFGGGTKLTVL
Question: What does the source list for B12?
Answer: pseudovirus neutralization IC50 [1]: > 10 µg/mL; pseudovirus neutralization IC50 [2]: > 10 µg/mL; pseudovirus neutralization IC50 [3]: > 10 µg/mL; pseudovirus neutralization IC50 [4]: > 10 µg/mL; pseudovirus neutralization IC50 [5]: > 10 µg/mL; pseudovirus neutralization IC50 [6]: > 10 µg/mL; pseudovirus neutralization IC50 [7]: 0.212 µg/mL
